The values below come from PMC11578313, “Miniaturized Modular Click Chemistry‐enabled Rapid Discovery of Unique SARS‐CoV‐2 M^pro Inhibitors With Robust Potency and Drug‐like Profile” (Advanced Science, 2024).

The structures appear in SMILES notation.

In series [1] the test system is SARS‐CoV‐2 (hCoV‐19/Korea/KCDC06/2020, wild type). The format is cell-based. The following applies: Calu‐3 cells.
Series [2] has as its system SARS‐CoV‐2 Omicron (hCoV‐19/Korea/KDCA447321/2021). The format is cell-based. Conditions: ratio of CC50 to EC50, Calu‐3.

In the case of `Cc1cncc(C(=O)N2C[C@H]3CC[C@@H](C2)N3[C@H](c2cccc(F)c2)c2cn(CCc3ccsc3)nn2)c1` [Compound C5N17B], in series [1], the “more potent than AA‐625” value was 2 fold and the “more potent than GC‐14” value is reported as “≈ 19 fold”. Besides, in series [1] (EC50 ratio), the “fold more potent antiviral activity than C5N17A” value was determined as 76 fold. Besides, the “S.I., SARS‐CoV‐2 Omicron” value in series [2] was > 741.
